These results are taken from paper PMC11794977, “Inhibitory Potential and Binding Thermodynamics of Scyllatoxin‐Based BH3 Domain Mimetics Targeting Repressor BCL2 Proteins” (Journal of Molecular Recognition, 2025).

By UniProt entry, the sequences of proteins in these tests, tags left out.
UniProt P10415, whole entry, stated change not applied: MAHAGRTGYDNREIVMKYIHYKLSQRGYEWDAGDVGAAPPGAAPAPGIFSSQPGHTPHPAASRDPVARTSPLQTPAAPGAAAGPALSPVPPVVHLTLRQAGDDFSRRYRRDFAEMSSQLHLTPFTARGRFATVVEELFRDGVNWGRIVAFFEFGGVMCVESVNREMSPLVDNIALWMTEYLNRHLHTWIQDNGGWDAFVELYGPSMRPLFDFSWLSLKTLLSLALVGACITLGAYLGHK

The target in this test is Bcl‐2‐ΔTM (UniProt P10415). Kind of test: Isothermal titration calorimetry (ITC). The note with it: 25°C, 3 trials. Here is the method:
All ITC experiments were performed in triplicate using a MicroCal 200 ITC instrument (Malvern Panalytical) at 25°C. To initiate ITC experiments, the sample cell was filled with 250 μL of binding buffer supplemented with 20 μM Bcl‐2‐ΔTM. Acetylated peptides were then diluted to a final concentration of 200 μM in binding buffer and injected into the sample cell at 2 μL volumes using a 6 s injection time and a 150 s delay between each injection. Data analysis was performed using MicroCal Origin software v7.0. Non‐linear curves were fit using Equation (3) adapted from the instrument manual: (3) ΔQ=nMtΔHVo/21+Xt/nMt+1/nKaMt−1+Xt/nMt+1/nKaMt^2−4Xt/nMt where, ΔQ is the heat content released or absorbed by each injection. ΔH is the enthalpy change of ligand binding and M t is bulk concentration of Bcl‐2‐ΔTM. V o is the cell volume of Bcl‐2‐ΔTM and K a is the affinity constant. X t is bulk concentration of peptide and n is the number of sites occupied by the peptide. Dissociation constants (K d) for all peptides were calculated by taking the reciprocal of the K a .
ΔG values were calculated from the Gibbs free energy Equation (4) using Origin‐fitted values of ΔH and program‐calculated values of ΔS. (4) ΔG=ΔΗ−ΤΔS

On to `CC[C@H](NC(=O)[C@H](CO)NC(=O)CNC(C)=O)C(=O)N[C@@H](CCCCN)C(=O)N[C@@H](CCCCN)C(=O)N[C@@H](CC(C)C)C(=O)N[C@@H](CO)C(=O)N[C@@H](CC)C(=O)N[C@@H](CC)C(=O)N[C@@H](CC(C)C)C(=O)N[C@@H](CCCCN)C(=O)N[C@H]1CSSC[C@@H](C(=O)N[C@H](C(=O)N[C@@H](CCCCN)C(=O)N[C@@H](Cc2c[nH]cn2)C(N)=O)C(C)C)NC(=O)[C@H](CCC(=O)O)NC(=O)[C@H](CC)NC(=O)[C@H](CCCCN)NC(=O)[C@H](CC(=O)O)NC(=O)CNC(=O)[C@H]([C@@H](C)CC)NC(=O)[C@H](CC)NC(=O)[C@H](CCCCN)NC(=O)CNC(=O)[C@H](CC(C)C)NC(=O)[C@H](CC(C)C)NC(=O)CNC(=O)[C@H](CC(=O)O)NC(=O)CNC(=O)[C@H]([C@@H](C)CC)NC1=O` [^AcScTx‐Bax^ΔΔ,12–28], for which the “n (number of sites)” value (20 μM Bcl‐2‐ΔTM in cell, 200 μM peptide injected, binding buffer pH 8.0, ± SD) came out at 1.20 ± 0.02. Also, the ΔG (binding buffer pH 8.0, calculated as ΔH − TΔS, ± SD) is -8.38 ± 0.33 kcal/mol. Under “binding buffer pH 8.0, ± SD”, the TΔS came to 2.81 ± 0.11 kcal/mol and the ΔH is -5.57 ± 0.45 kcal/mol.
